The results in this text go back to article PMC11205783, “HigA2 (Rv2021c) Is a Transcriptional Regulator with Multiple Regulatory Targets in Mycobacterium tuberculosis”.

The target in the series is T1, HigA2 (Mycobacterium tuberculosis H37Rv) (UniProt O53467).
T1 sequence (looked up): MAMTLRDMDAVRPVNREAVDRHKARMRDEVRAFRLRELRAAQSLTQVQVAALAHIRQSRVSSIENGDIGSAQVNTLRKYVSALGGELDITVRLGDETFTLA
Description: EMSA. The conditions noted are these: 150 mM NaCl, pH 8.0, 37 °C, 5 min, recombinant protein, residues 1-101, protein details: C-terminal 6xHis.

Where a protein sequence is shown, tags need not be part of it.

For “ATATCACCCTTGTGTGATAT (double strand) [Rv2022c]”, the binding result (20 mM Tris-HCl, flanks not given) is reported as “binds”.
With “GCGAAGGAGATATACATATGAACGTTCCATGGGAGAACGCGCACGGCGGCGCACTGTACTGCCTCATACGTGGGGATGAATTCTCGGCCTGGCACAGGCTACTGTTTCAACGGCCCGGGTGCGCAGAGTCCGTCCTCGCCTGCCGGCATTTCCTCGACGGTAGCCCCGTCGCCCGCTGCTCTTACCCGGAGGAATATCACCCTTGTGTGATATCGCGTATCGCGCTACTCTGCGACTCTGTGGGGTGGACGGCGGATGTGGAGCGCATCTCCGCCTGGCTCAACGGCTTGGACCGAGAGACCTACGAATTGGTGTTCGCAGCTATCGAGGTTCTCGAGGAAGAGGGCCCCGCACTTGGCTGTCCTCTGGTGGACACGGTGCGTGGGTCGCGCCACAAGAACATGAAGGAGCTGCGTCCAGGATCACAAGGGCGGTCCGAGGTCCGCATTCTGTTCGCCTTCGACCCGGCGCGGCAGGCGATCATGCTGGCCGCCGGTAACAAGGCCGGGCGGTGGACCCAGTGGTACGACGAGAAGATCAAAGCGGCCGATGAGATGTTTGCCGAACATCTCGCACAGTTCGAGGACACGAAGCCAAAGAGGCGCAAGCGCAAGAAAGGGTAAGATATCTCTAGAGAATTCC (double strand) [seq2]”, under “EMSA: 20 mM Tris-HCl, HigA2 1 uM (titrated in Fig 4), agarose or native PAGE, probe letters rebuilt from the primers and the genome”, the binding result was “binds”.
